Pooled drug test results. Numbers come from NIAID ChemDB, via PubChem.

All rows: tests in culture; organism: HIV-1; cell line: PBMC; endpoint: fold resistance

Neighbouring rows are from separate reports.

structure,strain,changes,method,value
Nc1ccn([C@@H]2CS[C@H](CO)O2)c(=O)n1,RT-Q151M Recombinant,RT-Q151M,p24,0.01
Cc1c(O)cccc1C(=O)N[C@@H](CSc1ccccc1)[C@H](O)CN1C[C@H]2CCCC[C@H]2C[C@H]1C(=O)NC(C)(C)C,Clinical isolate,PR-L10I I15V K20R M36I M46L I54V K55R I62V L63P K70Q V82A L89M,p24,14.3
CC(C)OC(=O)OCOP(=O)(CO[C@H](C)Cn1cnc2c(N)ncnc21)OCOC(=O)OC(C)C,56252-1 NRTI resistant recombinant,RT-T69K K70G V75I F77L F116Y Q151M M184V,RT activity,11
Cc1ccnc2c1NC(=O)c1cccnc1N2C1CC1,BCF11,RT-A98G K103R,-,5.9
O=c1[nH]cnc2c1ncn2[C@H]1CC[C@@H](CO)O1,7324-1 NRTI resistant recombinant,RT-M41L D67N T69N K70R T215F K219E,RT activity,1.7
COc1ccc(S(=O)(=O)N(CC(C)C)C[C@@H](O)[C@H](Cc2ccccc2)NC(=O)O[C@H]2CO[C@H]3OCC[C@H]32)cc1,Clinical isolate,PR-L10I V11I T12E I15V L19I R41K M46L L63 A71T V82A L90M,p24,2
S=C(NCCc1cccs1)Nc1ccc(Br)cn1,NRTI resistant (RT L74V M41L V106A T215Y) MDR,RT-L74V M41L V106A T215Y,p24,0.13
CC(C)=CCN1Cc2cc(Cl)cc3[nH]c(=S)n(c23)C[C@@H]1C,BCF01,RT-A98G K103R Y181C,-,>312.5
CC(C)(C)NC(=O)[C@@H]1C[C@@H]2CCCC[C@@H]2CN1C[C@@H](O)[C@H](Cc1ccccc1)NC(=O)[C@H](CC(N)=O)NC(=O)c1ccc2ccccc2n1,Clinical isolate,PR-L10I I15V K20R M36I M46L I54V K55R I62V L63P K70Q V82A L89M,p24,3.7
Cc1cn([C@H]2C=C[C@@H](CO)O2)c(=O)[nH]c1=O,52534-2 NRTI resistant recombinant,RT-M41L T69ins L74V M184V L210W T215Y,RT activity,9
Cc1ccnc2c1NC(=O)c1cccnc1N2C1CC1,NRTI resistant (RT Y181C K103N) A17 variant,RT-Y181C K103N,p24,2941
CC(C)CN(C[C@@H](O)[C@H](Cc1ccccc1)NC(=O)O[C@H]1CCOC1)S(=O)(=O)c1ccc(N)cc1,Clinical isolate,PR-L10I I15V K20R M36I M46L I54V K55R I62V L63P K70Q V82A L89M,p24,11.2
Cc1cn([C@H]2C[C@H](N=[N+]=[N-])[C@@H](CO)O2)c(=O)[nH]c1=O,1617-1 NRTI resistant recombinant,RT-T69K K70G V75I F77L F116Y Q151M M184V,RT activity,261
Cc1cn([C@H]2C[C@H](N=[N+]=[N-])[C@@H](CO)O2)c(=O)[nH]c1=O,BCF07,RT-A98G V106I Y181C,-,1
O=c1[nH]cnc2c1ncn2[C@H]1CC[C@@H](CO)O1,Recombinant,RT-F116Y,p24,0.15

An empty or dashed field is not shown. Fold resistance has wild type as its base.